Measured values from several laboratories, pooled; numbers as filed in NIAID ChemDB.

All rows: tests on isolated targets; species: HIV-1; target: Tat:TAR/LTR; read-out: IC50

Lines come from different laboratories, so protocols vary. ICn: concentration for n% inhibition.

smiles,read by,result
CC(=O)c1ccc2c(c1)N(CCCN(C)C)c1ccccc1S2,FRET,500 µM
CN1CCN(c2ccc3nc(-c4ccc5nc(-c6ccc(OCc7cn(C[C@H]8O[C@@H](O[C@@H]9[C@@H](O)[C@H](N)C[C@H](N)[C@H]9O[C@H]9O[C@H](CN)[C@@H](O)[C@H](O)[C@H]9N)[C@H](O)[C@@H]8O[C@H]8O[C@@H](CN)[C@@H](O)[C@H](O)[C@H]8N)nn7)cc6)[nH]c5c4)[nH]c3c2)CC1,FRET / binding,0.251 µM
NC(=O)CCNC[C@H](Cc1ccc(O)cc1)NC[C@H](Cc1ccc(O)cc1)NC[C@H](Cc1ccc(O)cc1)NC[C@H](Cc1ccc(O)cc1)NC[C@H](Cc1ccc(O)cc1)NC[C@H](Cc1ccc(O)cc1)NC[C@H](Cc1ccc(O)cc1)NC[C@@H](N)Cc1ccc(O)cc1,luciferase,0.2 µM
CC(=O)NCCN(CCC(=O)NCCN(CCC(=O)NCCN(CCC(=O)NCCN(CCC(=O)NCCN(CCC(=O)NCCC(N)=O)C(=O)[C@@H](N)Cc1ccccc1)C(=O)[C@@H](N)CCCN=C(N)N)C(=O)[C@@H](N)Cc1ccccc1)C(=O)[C@@H](N)Cc1ccccc1)C(=O)[C@@H](N)CCCN=C(N)N,FRET / fluorescence,>2 µM
COc1ccc2nc3cc(Cl)ccc3c(NCCCCN(CCCN)CCCN)c2c1,gel,0.083 µM
C[C@@H](CN[C@H](CN[C@H](CN[C@H](CNCCC(N)=O)Cc1ccc(O)cc1)Cc1ccc(O)cc1)Cc1ccc(O)cc1)NC[C@H](Cc1ccc(O)cc1)NC[C@H](Cc1ccc(O)cc1)NC[C@H](Cc1ccc(O)cc1)NC[C@@H](N)Cc1ccc(O)cc1,luciferase,0.2 µM
COc1ccc2nc3cc(Cl)ccc3c(NCc3ccc(CN(CCCN)CCCCN)cc3)c2c1,gel,>1 µM
CC(=O)NCCN(CCC(=O)NCCN(CCC(=O)NCCN(CCC(=O)NCCN(CCC(=O)NCCN(CCC(=O)NCCC(N)=O)C(=O)[C@@H](N)Cc1ccccc1)C(=O)[C@@H](N)CCCN=C(N)N)C(=O)[C@@H](N)Cc1ccccc1)C(=O)[C@@H](N)CCCN=C(N)N)C(=O)[C@@H](N)CCCN=C(N)N,FRET / fluorescence,0.101 µM
CN1CCN(CCCN2c3ccccc3Sc3ccc(C(F)(F)F)cc32)CC1,gel,>10 µM
NCCN(CCN)CCNC(=O)c1c2ccccc2nc2ccccc12,gel,>1 µM
NCCCC[C@@H](CN[C@H](CN[C@H](CN[C@H](CNCCC(N)=O)Cc1ccc(O)cc1)Cc1ccc(O)cc1)Cc1ccc(O)cc1)NC[C@H](Cc1ccc(O)cc1)NC[C@@H](N)Cc1ccc(O)cc1,luciferase,0.5 µM
Cc1cccc(OCCC[NH3+])c1[N+](=O)[O-],ELISA,164.8 µM
NCC1O[C@H](O[C@H]2C(N)C[C@@H](N)C(O)[C@H]2O[C@@H]2O[C@H](Cn3cc(CNC(=O)[C@@H](N)c4cnc[nH]4)nn3)[C@H](O[C@H]3O[C@@H](CN)[C@@H](O)C(O)C3N)C2O)C(N)[C@@H](O)[C@@H]1O,RNase H / fluorescence,0.461 µM
COc1ccc2nc3cc(Cl)ccc3c(NCCCCN(CCCN)CCCCN)c2c1,gel,0.076 µM
C[C@@H](CN[C@H](CN[C@H](CNCCC(N)=O)Cc1ccc(O)cc1)Cc1ccc(O)cc1)NC[C@H](Cc1ccc(O)cc1)NC[C@H](Cc1ccc(O)cc1)NC[C@@H](N)Cc1ccc(O)cc1,luciferase,3.2 µM
NCCCCN(CCCN)CCNc1c2ccccc2nc2ccccc12,gel,0.023 µM
CCN(CC)CCn1c2ccccc2c2nc3ccc([N+](=O)[O-])cc3cc21,FRET,500 µM
COc1ccc2nc3cc(Cl)ccc3c(NCCCCCN(CCCN)CCCCN)c2c1,gel,0.039 µM
CC(=O)NCCN(CCC(=O)NCCN(CCC(=O)NCCN(CCC(=O)NCCN(CCC(=O)NCCN(CCC(=O)NCCC(N)=O)C(=O)[C@@H](N)Cc1ccccc1)C(=O)[C@@H](N)CCCN=C(N)N)C(=O)[C@@H](N)Cc1ccccc1)C(=O)[C@@H](N)Cc1ccccc1)C(=O)[C@@H](N)Cc1ccccc1,FRET / fluorescence,>2 µM

2 of the rows above, restated:

smiles,read by,result
COc1ccc2nc3cc(Cl)ccc3c(NCCCCN(CCCN)CCCN)c2c1,gel,0.083 µM
C[C@@H](CN[C@H](CN[C@H](CN[C@H](CNCCC(N)=O)Cc1ccc(O)cc1)Cc1ccc(O)cc1)Cc1ccc(O)cc1)NC[C@H](Cc1ccc(O)cc1)NC[C@H](Cc1ccc(O)cc1)NC[C@H](Cc1ccc(O)cc1)NC[C@@H](N)Cc1ccc(O)cc1,luciferase,0.2 µM